A mixed list of measured activities; the numbers were collected in NIAID ChemDB.

Common to all: host cell toxicity; read-out: CC50

CCn: concentration that lowers growth or viability of the cells by n%.

smiles | cell line | method | value
Cc1nc(-c2ncc(F)c3c(C(=O)C(=O)N4CCN(C(=O)c5ccccc5)CC4)c[nH]c23)no1 | HeLa | trypan blue | >100 µM
CCC(C)[C@@H]1NC(=O)[C@@H](C(C)C)NC(=O)[C@H](CC(C)C)NC(=O)[C@H](Cc2c[nH]c3ccccc23)NC(=O)CNC(=O)[C@H](CC(N)=O)NC1=O | Lung carcinoma cells | MTT | >30 µM
CC(C)CCN([C@H](CO)CCC[C@@H](NC(=O)[C@@H](N)C(c1ccc(F)cc1)c1ccc(F)cc1)C1CC1)S(=O)(=O)c1ccc(CO)cc1 | T lymphoid cells | microscopy | >10 µM
COc1cc(F)cc(-c2ccc(C(=O)N(Cc3cccc(OCCCCCC(=O)OC(=O)O)c3)C(C)C)cc2)c1 | HEK 293 | - | >20 µM
CCCN([C@H](CO)CCC[C@H](CC)NC(=O)[C@@H](NC)C(c1ccccc1)c1ccccc1)S(=O)(=O)c1ccc(CO)cc1 | T lymphoid cells | microscopy | >10 µM
O=c1cc(-c2ccc3cc[nH]c3c2)c2cccnc2n1O | HeLa | - | <100 µM
CCOC(=O)c1[nH]c2c(c1NC(N)=S)C1=C(CCC/C1=C\c1ccncc1)C(c1ccncc1)S2 | MGC-803 | MTT | >50 µM
NCc1ccc(-c2ccc(Cc3cc(=O)n(O)c4ncccc34)cc2)cc1 | HeLa | - | 0.13 µM
COc1cnc(-c2cnc(NC(C)=O)s2)c2[nH]cc(C(=O)C(=O)N3CCN(C(=O)c4ccccc4)CC3)c12 | HeLa | trypan blue | >100 µM
NC(=S)Nc1ccc2c(c1)Cc1cc(N(CCCc3ccccc3)CCCc3ccccc3)ccc1-2 | Ava5-EG(delta4AB)SEAP | MTS | >1 µM
COc1cccc(-c2cccc(NC(=O)NCCc3ccc4c(n3)NCCC4)n2)c1 | PBMC | - | 25 µM
CC(C)C[C@@H]1NC(=O)[C@H](Cc2ccccc2)NC(=O)[C@@H](CCCCN)NC(=O)[C@H](CC(N)=O)NC(=O)[C@H](C(C)C)NC(=O)[C@@H](CC(C)C)NC1=O | Colorectal carcinoma | MTT | >30 µM
O=c1c2ccc(-c3ccccc3)cc2c2cccnc2n1O | HeLa | - | <100 µM
CCOC(=O)C1=C(CN2CC(F)(F)[C@@H]3[C@H]2CON3C[C@@H](F)C(C)(C)C(=O)O)NC(c2nc(C)cs2)=N[C@H]1c1cccc(F)c1C | HepG2.2.15 | WST / absorbance | 32.4 µM
COc1cnc(-c2ccco2)c2[nH]cc(C(=O)C(=O)N3CCN(C(=O)c4ccccc4)CC3)c12 | HeLa | trypan blue | >100 µM
CCOC(=O)CCCCCOc1cccc(CN(C(=O)c2ccc(-c3cccc(F)c3)cc2)C(C)C)c1 | RAJI | - | >20 µM
O=C1Sc2nc3c(c(=S)n2C/C1=C/c1ccc(Cl)cc1)C1=C(CCC/C1=C\c1ccncc1)C(c1ccncc1)S3 | MGC-803 | MTT | 18.9 µM
O=C(CCc1ccc2c(n1)NCCC2)Nc1ccc(Cl)c(Cl)c1 | PBMC | - | 10 µM
N#Cc1c(N)c2c3c([nH]c2[nH]c1=O)SC(c1ccncc1)C1=C3/C(=C/c2ccncc2)CCC1 | CNE-2 | MTT | 15.3 µM
CCC(C)[C@@H]1NC(=O)[C@@H](CC(C)C)NC(=O)[C@H](CC(C)C)NC(=O)[C@H](Cc2c[nH]c3ccccc23)NC(=O)CNC(=O)[C@H](CC(N)=O)NC1=O | Lung carcinoma cells | MTT | >30 µM
NC(=S)Nc1cccc(OCCCCCOc2cccc3[nH]ccc23)c1 | Ava5-EG(delta4AB)SEAP | MTS | >1 µM
CC(C)C[C@@H]1NC(=O)[C@H](Cc2c[nH]c3ccccc23)NC(=O)[C@@H](CCCCN)NC(=O)[C@H](CCC(N)=O)NC(=O)[C@H](CC(C)C)NC(=O)[C@@H](CC(C)C)NC1=O | Lung carcinoma cells | MTT | >30 µM
NC(=S)Nc1cccc(NCCCCCCCc2ccccc2)c1 | Ava5-EG(delta4AB)SEAP | MTS | >1 µM
COc1cnc(C(N)=O)c2[nH]cc(C(=O)C(=O)N3CCN(C(=O)c4ccccc4)[C@H](C)C3)c12 | HeLa | trypan blue | >100 µM
NC(=S)Nc1cccc(OCCCOc2ccc(-c3ccccc3)cc2)c1 | Ava5-EG(delta4AB)SEAP | MTS | >1 µM
CC[C@@H](CCC[C@@H](CO)N(CCC(C)C)S(=O)(=O)c1ccc(CO)cc1)NC(=O)[C@@H](NC(=O)OC)C(c1ccc(Cl)cc1)c1ccc(Cl)cc1 | T lymphoid cells | microscopy | >10 µM
NC(=S)Nc1ccc2c(c1)C(=O)c1ccccc1-2 | Ava5-EG(delta4AB)SEAP | MTS | >1 µM
CC[C@@H](CCC[C@@H](CO)N(CCC(C)C)S(=O)(=O)c1ccc(N)c(F)c1)NC(=O)[C@@H](NC(=O)OC)C(c1ccccc1)c1ccccc1 | T lymphoid cells | microscopy | >10 µM
CCOC(=O)c1[nH]c2c(c1N)C1=C(CCC/C1=C\c1ccncc1)C(c1ccncc1)S2 | CNE-2 | MTT | >50 µM
COC(=O)N[C@@H](Cc1ccccc1Cl)C(=O)N[C@H](CCC[C@@H](CO)N(CCC(C)C)S(=O)(=O)c1ccc2ncsc2c1)C1CC1 | T lymphoid cells | microscopy | >10 µM
CCOC(=O)C1=C(CN2CC(F)(F)[C@H]3[C@@H]2CCN3C[C@H](OC)C(C)(C)C(=O)O)NC(c2nc(C)cs2)=N[C@H]1c1cccc(F)c1C | HepG2.2.15 | WST / absorbance | 22.8 µM
CN(CCc1ccc2c(n1)NCCC2)C(=O)Nc1cccc(F)c1 | PBMC | - | 50 µM
CCOC(=O)C1=C(CN2CC(F)(F)[C@H]3[C@@H]2CCN3CC[C@@](C)(O)C(=O)O)NC(c2nccs2)=N[C@H]1c1ccc(F)c(F)c1C | HepG2.2.15 | WST / absorbance | 67.9 µM
O=C(NCCc1ccc2c(n1)NCCC2)Nc1cccc(Br)n1 | PBMC | - | 5.8 µM
CCOC(=O)CCCCCOc1cccc(CN(C(=O)c2ccc(-c3cccc(S(C)(=O)=O)c3)cc2)C(C)C)c1 | RAJI | - | >20 µM
CS(=O)(=O)c1cccc(-c2cc(=O)n(O)c3ncccc23)c1 | HeLa | - | <100 µM
Cc1cnn(-c2cc(Cl)nc3c(C(=O)C(=O)N4CCN(C(=O)c5ccccc5)[C@H](C)C4)c[nH]c23)c1 | HeLa | trypan blue | >100 µM
CCOC(=O)CCCCCOc1cccc(CN(C(=O)c2ccc(-c3cccc(Cl)c3)cc2)C(C)C)c1 | HEK 293 | - | <13.5 µM
COC(=O)C1=C(CN2CC(F)(F)[C@@H]3[C@H]2CON3C[C@H](OC)C(C)(C)C(=O)O)NC(c2ncoc2C)=N[C@H]1c1ccc(F)cc1Cl | HepG2.2.15 | WST / absorbance | >100 µM
NC(=S)Nc1cccc(OCCCCCOc2cccc3ccccc23)c1 | Ava5-EG(delta4AB)SEAP | MTS | >1 µM
COC(=O)N[C@H](C(=O)N[C@@H](C)CCC[C@@H](CO)N(CC(C)C)S(=O)(=O)c1ccc(CO)cc1)C(c1ccccc1)c1ccccc1 | T lymphoid cells | microscopy | >10 µM
O=C(NCCc1ccc2c(n1)NCCC2)Nc1ccccc1OCc1ccccc1 | PBMC | - | 5.6 µM
NC(=O)c1cc(-c2ncc(F)c3c(C(=O)C(=O)N4CCN(C(=O)c5ccccc5)CC4)c[nH]c23)n[nH]1 | HeLa | trypan blue | >100 µM

For reference, 6 entries again:

smiles,cell line,method,value
NC(=S)Nc1cccc(OCCCOc2ccc(-c3ccccc3)cc2)c1,Ava5-EG(delta4AB)SEAP,MTS,>1 µM
COc1cnc(C(N)=O)c2[nH]cc(C(=O)C(=O)N3CCN(C(=O)c4ccccc4)[C@H](C)C3)c12,HeLa,trypan blue,>100 µM
COC(=O)C1=C(CN2CC(F)(F)[C@@H]3[C@H]2CON3C[C@H](OC)C(C)(C)C(=O)O)NC(c2ncoc2C)=N[C@H]1c1ccc(F)cc1Cl,HepG2.2.15,WST / absorbance,>100 µM
CCOC(=O)C1=C(CN2CC(F)(F)[C@H]3[C@@H]2CCN3CC[C@@](C)(O)C(=O)O)NC(c2nccs2)=N[C@H]1c1ccc(F)c(F)c1C,HepG2.2.15,WST / absorbance,67.9 µM
CC(C)C[C@@H]1NC(=O)[C@H](Cc2c[nH]c3ccccc23)NC(=O)[C@@H](CCCCN)NC(=O)[C@H](CCC(N)=O)NC(=O)[C@H](CC(C)C)NC(=O)[C@@H](CC(C)C)NC1=O,Lung carcinoma cells,MTT,>30 µM
Cc1nc(-c2ncc(F)c3c(C(=O)C(=O)N4CCN(C(=O)c5ccccc5)CC4)c[nH]c23)no1,HeLa,trypan blue,>100 µM

Lines come from different laboratories, so protocols vary. Blank or dashed fields: not listed here.